Pooled drug test results. Numbers come from NIAID ChemDB, via PubChem.

Common to all: tests in culture; organism: HIV-1; measure: fold resistance

Blank or dashed fields: not listed here. Fold resistance: result on the changed form divided by that on wild type. Conditions beyond the fields shown may differ between rows.

SMILES	method	strain or isolate	mutations	cell line	value
Nc1nc2c(ncn2[C@H]2CO[C@@H](CO)O2)c(=O)[nH]1		RT-62V 69[SS] 70R 215Y	RT A62V T69SS insertion K70R T215Y		1
CCc1c(Sc2ccccn2)n(COCc2ccccc2)c(=O)[nH]c1=O	cytopathic effect / XTT	NL4-3	RT-V106I	CEM + CEM-SS	51.1
CC(C)Nc1cccnc1N1CCN(C(=O)c2cc3cc(NS(C)(=O)=O)ccc3[nH]2)CC1	cytopathic effect	J-2 (RT-Y181C)	RT-Y181C	CEM	3
Cc1cn([C@H]2C[C@H](N=[N+]=[N-])[C@@H](CO)O2)c(=O)[nH]c1=O	syncytia	IIIB TIBO R82913 STR-B02 (RT L100I E138K)	RT-L100I E138K	CEM	11.7
CC(C)(C)C(=O)c1sc(C(=O)NCc2ccccc2)c(O)c1O			INTG-T66I N155S		25
CCCN(C)C(=O)Oc1nsnc1-c1c(Cl)ccc(N)c1Cl	MTT	IIIB	RT-V189I	MAGI	1.63
Cc1cn([C@H]2C[C@H](N=[N+]=[N-])[C@@H](CO)O2)c(=O)[nH]c1=O			INTG-V151I		1
Cc1cn([C@H]2C=C[C@@H](CO)O2)c(=O)[nH]c1=O	p24	Recombinant	RT-V75I F77L Q151M	PBMC	0.04
CC(C)=CCN1Cc2cc(Cl)cc3[nH]c(=S)n(c23)C[C@@H]1C	syncytia	IIIB TIBO R82913 STR-1 (RT L100I Y181C)	RT-L100I Y181C	CEM	200
Cc1cn([C@H]2C[C@H](N=[N+]=[N-])[C@@H](CO)O2)c(=O)[nH]c1=O	XTT	Costatolide-resistant (RT Y188H)	RT-Y188H	CEM + CEM-SS	0.08
Cc1cn([C@H]2C[C@H](N=[N+]=[N-])[C@@H](CO)O2)c(=O)[nH]c1=O	p24	B8 (RT K101I K103N Y181C G190A)	RT-K101I K103N Y181C G190A	H9	~1
CC(C)(C)NC(=O)[C@@H]1C[C@@H]2CCCC[C@@H]2CN1C[C@@H](O)[C@H](Cc1ccccc1)NC(=O)[C@H](CC(N)=O)NC(=O)c1ccc2ccccc2n1	p24	NL4-3	PR-L10R L63P V82T	MT-4	1
CC(C)=CCOc1cc(NC(=S)c2ccoc2C)ccc1Cl	cytopathic effect	J-2 (RT-Y181C)	RT-Y181C	CEM	1
Cc1cn([C@H]2C[C@H](N=[N+]=[N-])[C@@H](CO)O2)c(=O)[nH]c1=O	cytopathic effect / XTT	IIIB	RT-K103N Y181C	CEM + CEM-SS	0.2
O=c1[nH]cnc2c1ncn2[C@H]1CC[C@@H](CO)O1	plaque count	HIVRTMF (RT L74V Y181C)	RT-L74V Y181C T215Y	HT4 + HT4 LacZ-1	7.14
CN[C@H]1CO[C@@H]2OCC[C@H](OC(=O)N[C@@H](Cc3ccccc3)[C@H](O)CN(CC(C)C)S(=O)(=O)c3ccc4nc(NC5CC5)sc4c3)[C@@H]21	p24 / luminescence	NL4-3	L10F V32I L33F M46L I54M A71V	MT-4	1
CC(C)=CCN1c2cc(Cl)cc3[nH]c(=S)n(c23)C[C@@H]1C			RT-K70R	MT-4	1
CCN[C@H]1CO[C@@H]2OCC[C@H](OC(=O)N[C@@H](Cc3cccc(OC)c3)[C@H](O)CN(CC(C)C)S(=O)(=O)c3ccc4nc(NC(C)C)sc4c3)[C@@H]21	p24 / luminescence	NL4-3	L10I N37D G48V I54V L63P G73C I84V L90M	MT-4	1.4
Cc1cc(S(N)(=O)=O)ccc1NC(=O)COc1ccc(Cl)cc1C(=O)c1cc(Cl)cc(C#N)c1	β-galactosidase	NNRTI-resistant (RT K103N L100I)	RT-K103N L100I	MAGI	2.88
C=C(C)OC(=O)N1c2cc(Cl)ccc2NC(=S)C1(C)C	p24	A2(RT-L74V G190E)	RT-L74V G190E	H9	>167
CCc1c(C(=O)c2cc(C)cc(C)c2)n(CC2CC=CC2)c(=O)[nH]c1=O	cytopathic effect / XTT	NL4-3	RT-V106I	CEM + CEM-SS	0.3
CC(C)CN(C[C@@H](O)[C@H](Cc1ccccc1)NC(=O)[C@H](CC(N)=O)NC(=O)c1ccc2ccccc2n1)C(=O)NC(C)(C)C	p24	NL4-3	PR-V82T	MT-4	0.5
Cc1ccnc2c1NC(=O)c1cccnc1N2C1CC1	cytopathic effect / XTT	NL4-3 (RT V179D)	RT-V179D	CEM + CEM-SS	1.5
CCn1c(=O)c(C)cn([C@@H]2O[C@H](CO[Si](C)(C)C(C)(C)C)C3(OS(=O)(=O)C=C3N)[C@H]2O[Si](C)(C)C(C)(C)C)c1=O	syncytia	IIIB nevirapine-resistant (RT Y181C)	RT-Y181C	CEM	>1670
Cc1cn([C@H]2C[C@H](N=[N+]=[N-])[C@@H](CO)O2)c(=O)[nH]c1=O	cytopathic effect	C-1 (RT-K101E)	RT-K101E	CEM	1
C[C@H](Cn1cnc2c(N)ncnc21)OCP(=O)(O)O	luciferase	Recombinant	RT-M41L S68N G112S M184V	HeLa	0.5
C1=Nc2ccccc2SN1	cytopathic effect / XTT	IIIB HEPT-resistant (RT P236L)	RT-P236L	CEM + CEM-SS	1.1
Cn1c2ccccc2c2c1cc(C#N)c(=O)n2-c1ccc([N+](=O)[O-])cc1	luciferase	NRTI resistant	RT-M41L E44D D67N T69D V118I L210W T215Y	HeLa	0.7
C[C@H](Cn1cnc2c(N)ncnc21)OCP(=O)(O)O	p24	G910-6 AZT-resistant (RT D67N K70R T215F K219Q)	RT-D67N K70R T215F K219Q	MT-2	0.282
O=c1[nH]cnc2c1ncn2[C@H]1CC[C@@H](CO)O1	p24	Recombinant	RT-V75I	PBMC	0.2
Cc1occc1C(=S)Nc1ccc(Cl)c(/C=N/OC(C)(C)C)c1	cytopathic effect / XTT	Oxathiin carboxanilide-resistant RT L100I	RT-L100I	CEM + CEM-SS	10
Cc1ccnc2c1NC(=O)c1cccnc1N2C1CC1	XTT	NL4-3	RT-V108I	CEM + CEM-SS	3
Cc1cn([C@H]2C=C[C@@H](CO)O2)c(=O)[nH]c1=O		RT-69N 70R 151M 215F	RT-T69N K70R Q151M T215F		>6
Cc1c(Sc2ccccc2)n(COCCO)c(=O)[nH]c1=O	cytopathic effect / XTT	IIIB	RT-Y181C	CEM + CEM-SS	>18
CC(C)(C)C(=O)c1sc(C(=O)NCCc2ccccc2)c(O)c1O			INTG-S153Y		2
O=c1[nH]cnc2c1ncn2[C@H]1CC[C@@H](CO)O1	syncytia	IIIB TIBO R82913 STR-1 (RT L100I Y181C)	RT-L100I Y181C	CEM	3
C/C=C/CSc1cc(NC(=S)c2ccsc2C)ccc1Cl	cytopathic effect / XTT	Costatolide-resistant (RT Y188H)	RT-Y188H	CEM + CEM-SS	5
CC(C)CN(C[C@@H](O)[C@H](Cc1ccccc1)NC(=O)O[C@H]1CCO[C@H]2OCC[C@H]21)S(=O)(=O)c1ccc2nc(NC3CC3)sc2c1	p24 / luminescence	NL4-3	L10F M46I I54V V82A	MT-4	87
Nc1nc2c(ncn2[C@H]2CC[C@@H](CO)O2)c(=O)[nH]1	syncytia	IIIB TIBO R82913 STR-B02 (RT L100I E138K)	RT-L100I E138K	CEM	0.7
O=c1[nH]cnc2c1ncn2[C@H]1CC[C@@H](CO)O1	plaque count	JF26 (RT M41L D67N T69D L210W T215Y)	RT-M41L D67N T69D L210W T215Y	HELA-CD4+	0.83
CCCc1cc(=O)oc2c3c(c4c(c12)OC(C)(C)C=C4)O[C@@H](C)[C@H](C)[C@@H]3O	cytopathic effect / XTT	UC040-R (RT-Y181C)	RT-Y181C	CEM + CEM-SS	<0.16
CC(C)CN(C[C@@H](O)[C@H](Cc1ccccc1)NC(=O)O[C@H]1CCOC1)S(=O)(=O)c1ccc(N)cc1	p24 / luminescence	NL4-3	L10I L33I M36I M46I I54V K55R I62V L63P A71V G73S V82T L90M I93L	MT-4	>27
O=S(=O)(c1ccccc1)c1ccccc1	XTT	Dihydrocostatolide-resistant (RT-L100I)	RT-L100I	CEM + CEM-SS	14.4
Cc1cn([C@H]2C[C@H](N=[N+]=[N-])[C@@H](CO)O2)c(=O)[nH]c1=O	luciferase	NRTI resistant	RT-V75I F77L F116Y Q151M	HeLa	43.9

Repeating the first 2 entries:

Nc1nc2c(ncn2[C@H]2CO[C@@H](CO)O2)c(=O)[nH]1 ; strain or isolate: RT-62V 69[SS] 70R 215Y ; mutations: RT A62V T69SS insertion K70R T215Y ; value: 1
CCc1c(Sc2ccccn2)n(COCc2ccccc2)c(=O)[nH]c1=O ; method: cytopathic effect / XTT ; strain or isolate: NL4-3 ; mutations: RT-V106I ; cell line: CEM + CEM-SS ; value: 51.1